## Positions that govern dimerization of the HIV-1 5' RNA

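Randomly mutated transcripts starting with one, two or three G (1G, 2G, 3G), capped or uncapped, were folded for 30 min at 37 °C. High salt was 300 mM KCl and 5 mM MgCl2, low salt 40 mM KCl and 0.1 mM MgCl2; monomer and dimer were parted on a native gel. Mutation frequencies in the two bands give Kdimer.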

Sequence of the HIV-1 NL4-3 5' RNA, positions 1 to 437, as numbered in the source:
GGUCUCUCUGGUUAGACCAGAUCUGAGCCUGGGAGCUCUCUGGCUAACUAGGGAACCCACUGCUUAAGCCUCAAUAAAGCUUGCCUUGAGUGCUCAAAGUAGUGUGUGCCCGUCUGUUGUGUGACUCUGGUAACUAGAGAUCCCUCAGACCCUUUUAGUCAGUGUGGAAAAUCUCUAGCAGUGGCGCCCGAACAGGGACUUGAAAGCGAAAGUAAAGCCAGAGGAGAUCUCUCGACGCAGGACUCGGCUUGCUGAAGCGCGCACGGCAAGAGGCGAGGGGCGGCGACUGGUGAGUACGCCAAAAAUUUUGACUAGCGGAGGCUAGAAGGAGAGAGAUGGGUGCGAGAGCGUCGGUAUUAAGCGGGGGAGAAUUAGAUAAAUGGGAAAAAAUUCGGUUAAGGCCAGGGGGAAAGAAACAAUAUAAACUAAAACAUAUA

Scale: median log2 Kdimer over the changes at a position; positive = changes inhibit dimerization, negative = changes enhance it. One numbering serves 1G, 2G and 3G. A position is written with its base.

- A21 (domain TAR) = 3G capped high-salt 0.06; 1G capped high-salt 0.13; 1G uncapped high-salt 0.18; 2G uncapped high-salt 0.00
- U22 (domain TAR) = 3G capped high-salt 0.16; 1G capped high-salt 0.22; 1G uncapped high-salt 0.01; 2G uncapped high-salt 0.02
- C23 (domain TAR) = 3G capped high-salt 0.41; 1G capped high-salt -0.57; 1G uncapped high-salt -0.01; 2G uncapped high-salt 0.03
- U24 (domain TAR) = 3G capped high-salt -0.12; 1G capped high-salt -0.03; 1G uncapped high-salt 0.17; 2G uncapped high-salt 0.16
- G25 (domain TAR) = 3G capped high-salt -0.33; 1G capped high-salt -0.34; 1G uncapped high-salt -0.08; 2G uncapped high-salt -0.45
- A26 (domain TAR) = 3G capped high-salt -0.13; 1G capped high-salt 0.19; 1G uncapped high-salt 0.11; 2G uncapped high-salt 0.02
- G27 (domain TAR) = 3G capped high-salt -0.90; 1G capped high-salt -0.72; 1G uncapped high-salt -0.42; 2G uncapped high-salt -0.51
- C28 (domain TAR) = 3G capped high-salt -0.02; 1G capped high-salt -0.06; 1G uncapped high-salt 0.11; 2G uncapped high-salt -0.48
- C29 (domain TAR) = 3G capped high-salt 0.18; 1G capped high-salt -0.04; 1G uncapped high-salt 0.04; 2G uncapped high-salt 0.13
- U30 (domain TAR) = 3G capped high-salt -0.05; 1G capped high-salt 0.09; 1G uncapped high-salt -0.19; 2G uncapped high-salt 0.05
- G31 (domain TAR) = 3G capped high-salt 0.09; 1G capped high-salt -0.25; 1G uncapped high-salt -0.06; 2G uncapped high-salt 0.26
- G32 (domain TAR) = 3G capped high-salt -0.08; 1G capped high-salt -0.12; 1G uncapped high-salt 0.08; 2G uncapped high-salt 0.01
- G33 (domain TAR) = 3G capped high-salt 0.05; 1G capped high-salt 0.03; 1G uncapped high-salt 0.07; 2G uncapped high-salt 0.08
- A34 (domain TAR) = 3G capped high-salt 0.01; 1G capped high-salt 0.08; 1G uncapped high-salt 0.12; 2G uncapped high-salt 0.11
- G35 (domain TAR) = 3G capped high-salt -0.59; 1G capped high-salt 0.03; 1G uncapped high-salt -0.09; 2G uncapped high-salt -0.28
- C36 (domain TAR) = 3G capped high-salt -0.30; 1G capped high-salt -0.15; 1G uncapped high-salt -0.05; 2G uncapped high-salt -0.41
- U37 (domain TAR) = 3G capped high-salt -0.27; 1G capped high-salt 0.00; 1G uncapped high-salt -0.28; 2G uncapped high-salt -0.25
- C38 (domain TAR) = 3G capped high-salt -0.35; 1G capped high-salt -0.01; 1G uncapped high-salt 0.06; 2G uncapped high-salt -0.15
- U39 (domain TAR) = 3G capped high-salt -0.07; 1G capped high-salt 0.24; 1G uncapped high-salt 0.12; 2G uncapped high-salt 0.02
- C40 (domain TAR) = 3G capped high-salt 0.05; 1G capped high-salt -0.32; 1G uncapped high-salt 0.02; 2G uncapped high-salt 0.13
- U41 (domain TAR) = 3G capped high-salt -0.09; 1G capped high-salt -0.24; 1G uncapped high-salt -0.06; 2G uncapped high-salt -0.07
- G42 (domain TAR) = 3G capped high-salt -0.47; 1G capped high-salt -0.58; 1G uncapped high-salt -0.25; 2G uncapped high-salt -0.18
- G43 (domain TAR) = 3G capped high-salt -0.04; 1G capped high-salt -0.18; 1G uncapped high-salt 0.06; 2G uncapped high-salt -0.14
- C44 (domain TAR) = 3G capped high-salt -0.01; 1G capped high-salt -0.19; 1G uncapped high-salt -0.06; 2G uncapped high-salt 0.15
- U45 (domain TAR) = 3G capped high-salt -0.09; 1G capped high-salt -0.10; 1G uncapped high-salt 0.03; 2G uncapped high-salt -0.10
- A46 (domain TAR) = 3G capped high-salt -0.12; 1G capped high-salt -0.32; 1G uncapped high-salt -0.05; 2G uncapped high-salt -0.12
- A47 (domain TAR) = 3G capped high-salt 0.10; 1G capped high-salt -0.05; 1G uncapped high-salt 0.00; 2G uncapped high-salt -0.13
- C48 (domain TAR) = 3G capped high-salt -0.11; 1G capped high-salt -0.31; 1G uncapped high-salt -0.08; 2G uncapped high-salt -0.06
- U49 (domain TAR) = 3G capped high-salt 0.09; 1G capped high-salt -0.12; 1G uncapped high-salt 0.12; 2G uncapped high-salt 0.07
- A50 (domain TAR) = 3G capped high-salt 0.00; 1G capped high-salt 0.10; 1G uncapped high-salt -0.01; 2G uncapped high-salt 0.09
- G51 (domain TAR) = 3G capped high-salt 0.05; 1G capped high-salt -0.02; 1G uncapped high-salt -0.01; 2G uncapped high-salt 0.07
- G52 (domain TAR) = 3G capped high-salt 0.04; 1G capped high-salt 0.19; 1G uncapped high-salt 0.19; 2G uncapped high-salt 0.05

2 of these entries, quoted again:

position,domain,3G capped high-salt,1G capped high-salt,1G uncapped high-salt,2G uncapped high-salt
U22,TAR,0.16,0.22,0.01,0.02
C38,TAR,-0.35,-0.01,0.06,-0.15

The measurements come from Ye et al. 2022 (doi:10.1038/s41594-022-00746-2).